This passage reports Kd results from PMC4764553, “Human cytomegalovirus IE1 protein alters the higher-order chromatin structure by targeting the acidic patch of the nucleosome” (eLife, 2016).

The data set concerns LANA N-terminal CTD peptide;human histone octamer H2A E56R (Kaposi's sarcoma-associated herpesvirus;Homo sapiens). In words: ITC.

Take 147-bp Widom 601 (human NCP): the dissociation constant Kd amounted to 23.4 µM.

By Kd is commonly meant the free concentration of one partner at which half of the binding sites on the other are occupied at equilibrium, for simple one-to-one binding. Low readings indicate higher affinity, high ones lower affinity.
